Measured data: PubChem BioAssay AID1259414 (Drosophila RNAi Screening Center, 2018)
In all, the deposit lists about 24,000 reagents; this is an unselected part of those with a known target gene and a result. Of all reagents, about 1,210 (5%) got an active call. 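Inactive calls also include excluded dsRNAs with several or no targets, genes unexpressed in JW18, and well A1, regardless of score.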 Unmarked entries are inactive. Reagents against one gene are numbered here. Reagent sequences are not shown.

Purpose: 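Genome-wide screen for host control of endosymbiont load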 (primary screen)
Cells: Drosophila JW18 cells infected with Wolbachia
Reagent: long dsRNA against Drosophila genes, 0.25 µg dsRNA per well of a 384-well plate
Timing: 5 days
Treatment: cells persistently infected with Wolbachia before knock-down; no added drug
Measurement: 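Imaged fluorescence in situ signal for Wolbachia 23S rRNA per DAPI-counted host cell, given as a robust z-score within each plate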
Reading the numbers: Wolbachia per cell robust z: higher = more Wolbachia per host cell than the plate typical
Call rule: 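Hit when robust z is 1.5 or more, or -1.5 or less, in at least two of three replicates; excludes dsRNAs with several or no targets, genes not expressed in JW18 and well A1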

After knock-down of CG9286 (GeneID 41690) #1 the results were Wolbachia per cell robust z, rep 1 = 0.234; Wolbachia per cell robust z, rep 2 = 0.34; Wolbachia per cell robust z, rep 3 = -2.24.
With knock-down of CG9286 (GeneID 41690) #2, the record shows Wolbachia per cell robust z, rep 1 = -1.43; Wolbachia per cell robust z, rep 2 = -0.314; Wolbachia per cell robust z, rep 3 = -0.503.
For Mic26-27 (GeneID 41959) the deposit lists Wolbachia per cell robust z, rep 1 = -1.63; Wolbachia per cell robust z, rep 2 = -0.0188; Wolbachia per cell robust z, rep 3 = 0.229.
Against Mp20 (GeneID 36468) #1, the values are Wolbachia per cell robust z, rep 1 = -0.165; Wolbachia per cell robust z, rep 2 = 0.194; Wolbachia per cell robust z, rep 3 = -2.13.
After knock-down of Mp20 (GeneID 36468) #2, the screen gave Wolbachia per cell robust z, rep 1 = 0.0219; Wolbachia per cell robust z, rep 2 = 0.799; Wolbachia per cell robust z, rep 3 = -1.77.
After knock-down of alpha-Man-Ia (GeneID 31957) #1 the results were Wolbachia per cell robust z, rep 1 = 0.92; Wolbachia per cell robust z, rep 2 = -0.886; Wolbachia per cell robust z, rep 3 = 0.674.
Depletion of alpha-Man-Ia (GeneID 31957) #2 came out at: Wolbachia per cell robust z, rep 1 = 0.256; Wolbachia per cell robust z, rep 2 = 0.668; Wolbachia per cell robust z, rep 3 = 0.702.
Against alpha-Man-Ia (GeneID 31957) #3, the values are Wolbachia per cell robust z, rep 1 = 0.832; Wolbachia per cell robust z, rep 2 = -0.995; Wolbachia per cell robust z, rep 3 = -0.328.
Against alpha-Man-Ia (GeneID 31957) #4, the entry reads Wolbachia per cell robust z, rep 1 = -1.16; Wolbachia per cell robust z, rep 2 = -0.408; Wolbachia per cell robust z, rep 3 = -0.58.
Against alpha-Man-Ia (GeneID 31957) #5, the values are Wolbachia per cell robust z, rep 1 = 0.656; Wolbachia per cell robust z, rep 2 = 0.0536; Wolbachia per cell robust z, rep 3 = 0.492.
For CG5946 (GeneID 39336) the deposit lists Wolbachia per cell robust z, rep 1 = 0.02; Wolbachia per cell robust z, rep 2 = -0.43; Wolbachia per cell robust z, rep 3 = 0.241.
Against Nnk (GeneID 42143) #1 the deposit lists Wolbachia per cell robust z, rep 1 = 0.017; Wolbachia per cell robust z, rep 2 = 1.06; Wolbachia per cell robust z, rep 3 = 0.651.
For Nnk (GeneID 42143) #2 the deposit lists Wolbachia per cell robust z, rep 1 = -0.135; Wolbachia per cell robust z, rep 2 = -0.25; Wolbachia per cell robust z, rep 3 = 1.64.
